Literature values in article PMC8611036, “An integrated method for optimized identification of effective natural inhibitors against SARS-CoV-2 3CLpro” (Scientific Reports, 2021).
Like-named read-outs stand apart in the source and are kept apart here.

System: SARS-CoV 3CLpro
Settings: cited from earlier work
[1] = SARS-CoV 3CLpro inhibitors (training set), from literature IC50, ref: per compound
[2] = SARS-CoV 3CLpro inhibitors (training set), literature values, ref: per compound

Compound	pIC50 [1]	IC50 [2]	IC50	pIC50
Cc1coc2c1C(=O)C(=O)c1c-2ccc2c(C)cccc12 [CMP127]	4.412	38.7 µM		
CC(C)(C)NC(=O)C(c1cccnc1)N(C(=O)c1cnco1)c1ccc(C(C)(C)C)cc1 (centres unmarked) [CMP188]	4.409	39 µM		
CCN(CC)c1ccc(C(=O)On2nnc3ccccc32)cc1 [CMP164]	4.955	11.1 µM		
COc1cc(/C=C/C(=O)/C=C(O)/C=C/c2ccc(O)c(OC)c2)ccc1O [CMP156]	4.629	23.5 µM		
COc1ccc(-c2cc(=O)c3c(O)cc(O)cc3o2)cc1-c1c(O)cc(O)c2c(=O)cc(-c3ccc(O)cc3)oc12 [CMP157]	4.141	72.3 µM		
O=C1NN(c2ccc(Cl)c(Cl)c2)C(=O)/C1=C\c1ccc(-c2ccc(Br)cc2C(=O)O)o1 [CMP104]	5.037	9.19 µM		
COC(=O)[C@]1(C)CC[C@]2(C)CC[C@]3(C)C4=CC=C5C(=CC(=O)C(O)=C5C)[C@]4(C)CC[C@@]3(C)[C@@H]2C1 [CMP128]			5.5 µM	5.26
COc1ccc2c(c1)CCC1C2=NN(C(C)=O)C1c1cccc(I)c1 (centres unmarked) [CMP116]	5.009	9.8 µM		
CC(C)c1cc2c(cc1O)[C@@]1(C)CC[C@H](O)C(C)(C)[C@@H]1CC2 [CMP163]	3.632	233 µM		
C=C(CCSc1ccccc1NC(=O)/C=C/c1ccccc1)OC [CMP107]	4.87	13.5 µM		
